Measured values from several laboratories, pooled; numbers as filed in NIAID ChemDB.

Shared fields: growth or infection tests; agent: HIV-1; read-out: inhibition

An empty or dashed field is not shown. Percent inhibition refers to the dose given; in toxicity tests it is the harm to the cells. Rows are shuffled and stem from different studies.

| SMILES | strain or isolate | setting | tested at | changes | cells | method | value |
|---|---|---|---|---|---|---|---|
| CC(C)[C@H](NC(=O)c1ccc2ccccc2n1)C(=O)N[C@@H](Cc1ccccc1)[C@H](O)CN1CC[C@@H](OCc2ccncc2)C[C@H]1C(=O)NC(C)(C)C | ddI-resistant | - | 0.034 µM | - | C8166 | p24 | 90% |
| NC12CC3CC(CC(C3)C1)C2 | LAV | - | 100 µg/mL | - | MT-4 | - | 99.9% |
| C/C=C(\C)C(=O)O[C@H]1[C@H]2[C@@H](CC[C@H]3C[C@@H](O[C@H]4C[C@@H](OC)[C@H](O[C@@H]5OC(C)[C@@H](O[C@@H]6OC(CO)[C@@H](O[C@@H]7OC(CO)[C@@H](O)[C@H](O)C7O)[C@H](O)C6O)[C@H](OC)C5O)C(C)O4)CC[C@@]32C)[C@@]2(O)CC[C@H](C(C)=O)[C@@]2(C)[C@@H]1OC(=O)c1ccccc1 | - | pseudotyped | 30 µM | - | SupT1 | luciferase | 32.42% |
| Nc1ncnc2c1ncn2[C@H]1CC[C@@H](CO)O1 | LAV-1 | - | 10 µM | - | U-937 | virus yield | 90% |
| NCC(=O)N1CCC[C@H]1C(=O)NCC(=O)N[C@H](C=O)CCCN=C(N)N | ELI | - | 25 µg/mL | - | HUT | p24 | 0% |
| CCn1c2ccccc2c2cc(C(=O)OC)nc(C)c21 | NL4-3 | - | 3.73 µM | - | CEM-GFP | p24 / ELISA / antigen | 0% |
| COc1ccccc1CN[C@H]1C2CCN(CC2)[C@H]1C(c1ccccc1)c1ccccc1 | ADA R5 isolate | - | 0.1 µM | - | Macrophage + Monocytes/macrophages | RT activity | 70% |
| O=C(OC[C@H]1O[C@@H](OC(=O)c2cc(O)c(O)c(O)c2)[C@H](O)[C@@H](OC(=O)c2cc(O)c(O)c(O)c2)[C@@H]1O)c1cc(O)c(O)c(O)c1 | IIIB | - | 33 µg/mL | - | MOLT-3 | syncytia | 82% |
| Cc1cn([C@H]2C[C@H](N=[N+]=[N-])[C@@H](CO)O2)c(=O)[nH]c1=O | IIIB | - | 0.08 µg/mL | - | C8166 | p24 | 85.7% |
| COc1ccc2cc([C@H](C)C(=O)O)ccc2c1 | LAV | - | 100 µg/mL | - | MT-4 | - | 0% |
| COCCNC(=O)[C@@H](NC(=O)[C@H](Cc1ccc(OC)c(OC)c1OC)C[C@H](O)[C@H](Cc1ccccc1)NC(=O)OC(C)(C)C)C(C)C | - | chronic infection, inside macrophages | 1 µM | - | Macrophages HIV-1 + Macrophage | - | 100% |
| NC(N)=NCCC[C@H](N)C(=O)NCC(=O)N1CCC[C@H]1C(=O)NCC=O | IIIB | - | 250 µg/mL | - | H9 | p24 | 96.4% |
| O=S(=O)(O)c1cc(N=C=S)ccc1/C=C/c1ccc(N=C=S)cc1S(=O)(=O)O | GB8 | - | 50 µg/mL | - | JM | syncytia | 100% |
| C/C=C(\C)C(=O)O[C@H]1[C@H]2[C@@H](CC=C3C[C@@H](O[C@H]4C[C@@H](OC)[C@H](O[C@@H]5OC(C)[C@@H](O[C@@H]6OC(CO)[C@@H](O[C@@H]7OC(CO)[C@@H](O)[C@H](O)C7O)[C@H](O)C6O)[C@H](OC)C5O)C(C)O4)CC[C@@]32C)[C@@]2(O)CC[C@H](C(C)=O)[C@@]2(C)[C@@H]1OC(=O)/C(C)=C/C | - | pseudotyped | 30 µM | - | SupT1 | luciferase | 37.81% |
| COC(=O)c1cc2c3ccccc3n(-c3ccccc3)c2c(C)n1 | NL4-3 | - | 15.13 µM | - | CEM-GFP | p24 / ELISA / antigen | 0% |
| C/C(=C(/CCO)SSCC1CCCO1)N(C=O)Cc1cnc(C)nc1N | LAV-1 | - | 50 µM | - | CEM/HIV-1(LAV-1) + CEM | p24 | 95% |
| O=C(O)P(=O)(O)O | IIIB | 2 d | 150 µM | - | H9 | p24 / antigen | 90% |
| O=c1[nH]cnc2c1ncn2[C@H]1CC[C@@H](CO)O1 | BZ X4 | - | 9 µM | - | PBL (resting) + PBL | RT activity | 98% |
| CC(C)(CO)[C@@H](O)C(=O)NCCCC(=O)O | LAV | - | 10 µg/mL | - | MT-4 | - | 0% |
| CCCC(=O)O[C@H]1CN2CC[C@H](O)[C@@H]2[C@@H](O)[C@@H]1O | IIIB | - | 20 µM | - | H9 | - | 99% |
| N[C@@H](CCC(=O)N[C@@H](CS)C(=O)NCC(=O)O)C(=O)O | LAV | - | 100 µg/mL | - | MT-4 | - | 0% |
| O=C1N(Cc2ccc(CO)cc2)[C@H](Cc2ccccc2)[C@H](O)[C@@H](O)[C@@H](Cc2ccccc2)N1Cc1ccc(CO)cc1 | 9156 clinical isolate | - | 0.16 µM | - | PBMC | p24 | 90% |
| CO[C@@H]1C(O)[C@H](O[C@@H]2C(C)O[C@@H](O[C@H]3CC[C@@]4(C)C(=CC[C@@H]5[C@@H]4[C@H](OC(C)=O)[C@@H](OC(=O)c4ccccc4)[C@]4(C)[C@@H](C(C)=O)CC[C@]54O)C3)C[C@H]2OC)OC(C)[C@H]1O[C@@H]1OC(CO)[C@@H](O[C@@H]2OC(CO)[C@@H](O)[C@H](O)C2O)[C@H](O)C1O | - | pseudotyped | 30 µM | - | SupT1 | luciferase | 47.75% |
| Oc1ccc(/C=C/c2cc(O)cc(O)c2)cc1 | ddI-resistant (RT K65R/L74V/M184V) | - | 5 µM | RT-K65R L74V M184V | PBMC | p24 | 30% |
| OCCN1CCN(CCCN2c3ccccc3Sc3ccc(Cl)cc32)CC1 | LAV | - | 10 µg/mL | - | MT-4 | - | 94% |
| NCC(=O)N1CCC[C@H]1C=O | IIIB | - | 25 µg/mL | - | H9 | syncytia | 88% |
| CCCCn1c2c(c3ccccc31)C(C)=NC(CCCC)(C(=O)OC)C2 | NL4-3 | - | 14.12 µM | - | CEM-GFP | p24 / ELISA / antigen | 0% |
| Cc1cn([C@H]2C[C@H](N=[N+]=[N-])[C@@H](CO)O2)c(=O)[nH]c1=O | SF162 R5 | - | 4 µM | - | PBL (resting) + PBL | RT activity | 29% |
| COC1=C(OC)C(=O)C(C/C=C(\C)CC/C=C(\C)CC/C=C(\C)CC/C=C(\C)CC/C=C(/C)CC/C=C(\C)CC/C=C(\C)CC/C=C(\C)CC/C=C(\C)CCC=C(C)C)=C(C)C1=O | LAV | - | 100 µg/mL | - | MT-4 | - | 0% |
| Cc1ccnc2c1NC(=O)c1cccnc1N2C1CC1 | IIIB | - | 0.3 µM | - | PBL (activated) + PBL | RT activity | 90% |
| COC(=O)c1cc2c([nH]c3ccccc32)c(C=O)n1 | NL4-3 | - | 9.83 µM | - | CEM-GFP | p24 / ELISA / antigen | 78.17% |
| CC(=O)CCCCn1c(=O)c2c(ncn2C)n(C)c1=O | LAV | - | 100 µg/mL | - | MT-4 | - | 0% |
| Cc1nc(C(=O)C2COCCN2)cc2c1[nH]c1ccccc12 | NL4-3 | - | 27.12 µM | - | CEM-GFP | p24 / ELISA / antigen | 0% |
| NCC(=O)N1CCC[C@H]1C(=O)NCC=O | IIIB | - | 250 µg/mL | - | H9 | p24 | 98.5% |
| CCCC(=O)OC[C@@H](OC(=O)CCC)[C@@H](OC(=O)CCC)[C@H](Cn1c2nc(=O)[nH]c(=O)c-2nc2cc(C)c(C)cc21)OC(=O)CCC | LAV | - | 100 µg/mL | - | MT-4 | - | 0% |
| CC(C)(O)c1cccc(CN2C(=O)N(Cc3cccc(C(C)(C)O)c3)[C@H](Cc3ccccc3)[C@H](O)[C@@H](O)[C@H]2Cc2ccccc2)c1 | HXB2 | - | 0.0843 µM | PR-V82F | MT-2/MT-4 + MT-2 | p24 | 90% |
| NCC(=O)NCC(=O)NCC=O | IIIB | - | 25 µg/mL | - | H9 | syncytia | 10% |
| C/C=C(\C)C(=O)O[C@@H]1[C@@H](OC(=O)c2ccccc2)[C@H]2[C@@H](CC=C3C[C@@H](O[C@H]4C[C@@H](OC)[C@H](O[C@@H]5OC(C)[C@@H](O[C@@H]6OC(CO)[C@@H](O[C@@H]7OC(CO)[C@@H](O)[C@H](O)C7O)[C@H](O)C6O)[C@H](OC)C5O)C(C)O4)CC[C@@]32C)[C@@]2(O)CC[C@H](C(C)=O)[C@@]12C | - | pseudotyped | 30 µM | - | SupT1 | luciferase | 22.54% |

The first 4 rows once more:

CC(C)[C@H](NC(=O)c1ccc2ccccc2n1)C(=O)N[C@@H](Cc1ccccc1)[C@H](O)CN1CC[C@@H](OCc2ccncc2)C[C@H]1C(=O)NC(C)(C)C ; strain or isolate: ddI-resistant ; tested at: 0.034 µM ; cells: C8166 ; method: p24 ; value: 90%
NC12CC3CC(CC(C3)C1)C2 ; strain or isolate: LAV ; tested at: 100 µg/mL ; cells: MT-4 ; value: 99.9%
C/C=C(\C)C(=O)O[C@H]1[C@H]2[C@@H](CC[C@H]3C[C@@H](O[C@H]4C[C@@H](OC)[C@H](O[C@@H]5OC(C)[C@@H](O[C@@H]6OC(CO)[C@@H](O[C@@H]7OC(CO)[C@@H](O)[C@H](O)C7O)[C@H](O)C6O)[C@H](OC)C5O)C(C)O4)CC[C@@]32C)[C@@]2(O)CC[C@H](C(C)=O)[C@@]2(C)[C@@H]1OC(=O)c1ccccc1 ; setting: pseudotyped ; tested at: 30 µM ; cells: SupT1 ; method: luciferase ; value: 32.42%
Nc1ncnc2c1ncn2[C@H]1CC[C@@H](CO)O1 ; strain or isolate: LAV-1 ; tested at: 10 µM ; cells: U-937 ; method: virus yield ; value: 90%